Results of unrelated studies side by side (data: NIAID ChemDB).

All rows: whole-cell or culture tests; agent: Mycobacterium tuberculosis

Percent inhibition refers to the dose given; in toxicity tests it is the harm to the cells.

smiles	strain or isolate	changes	method	read-out	dose	result
Cc1nccc2c1[nH]c1cc(OC(=O)C(C)C)ccc12	H37Rv			EC50		>6.25 µg/mL
CCN(CC)Cc1cc(C)c(O)c(N=Nc2cc(OC)c(N=Nc3ccc([N+](=O)[O-])cc3)cc2OC)c1C	H37Rv		resazurin	inhibition	6.25 µg/mL	9%
Cc1ccc(C2=NNC(=O)/C(=C\c3ccc(O)cc3)C2)cc1	H37Rv		resazurin	MIC		25 µg/mL
N=C(N)N1N=C(/C=C/c2ccccc2)CC1c1ccccc1	H37Rv		resazurin	MIC		2.15 µM
CCCC1=NNc2n[nH]c(=S)n2N1	H37Rv		BACTEC	MIC bound		>12.5 µg/mL
Cc1ccc2c(c1)c1c3n2CCN(C(=O)CCC(=O)O)C3CCC1	ATCC 607			MIC		250 µg/mL
CC1=C(C(=O)Nc2ccc(F)c(Cl)c2)C(c2ccc(O)cc2)C(C(=O)Nc2ccc(F)c(Cl)c2)=C(C)N1	H37Rv			MIC		>6.25 µg/mL
Cc1cccc(N=Nc2c(-c3ccccc3)nn(C(=S)S)c2C)c1C	H37Rv		BACTEC	inhibition	128 µg/mL	100%
CCn1cc(C(=O)O)c(=O)c2cc(F)c(N3CCN(CN4C(=O)/C(=N\c5ncc(Cc6cc(OC)c(OC)c(OC)c6)c(N)n5)c5cc(F)ccc54)C(C)C3)c(F)c21	H37Rv			inhibition	6.25 µg/mL	100%
COc1c(C)c(C)c2[nH]c3ccccc3c2c1OC	H37Ra		GFP	MIC		>50 µg/mL
COc1cc(Cc2cnc(/N=C3\C(=O)N(CN4CCCC4)c4ccc(F)cc43)nc2N)cc(OC)c1OC	H37Rv			EC50		>6.25 µg/mL
CCCc1ccc(-c2cc(CN3CCOCC3)c(C)n2-c2ccc(OC)cc2)cc1	H37Rv			MIC90		28.82 µM
COc1ccccc1-n1c(S[Si](C)(C)C)nc2ccccc2c1=O	H37Rv			MIC		≤10 µg/mL
Cc1ccc(N=Nc2c(O)c3ccccc3[nH]c2=O)c(S(=O)(=O)N(C)C)c1	H37Rv		BACTEC	inhibition	12.5 µg/mL	0%
CCOC(=O)c1cc(-c2ccc(Cl)cc2)n(CCC(=O)N/N=C/c2ccc(OC)cc2)c1C	H37Rv			inhibition	6.25 µg/mL	92%
Cc1ccc(-c2cc(CN3CCOCC3)c(C)n2-c2ccc(F)cc2)cc1	H37Rv wild-type			MIC		0.16 µM
C[N+](C)(C)CCOC(=O)/C=C/c1cnc[nH]1.[OH-]	H37Rv		BACTEC	MIC bound		>12.5 µg/mL
CCSc1nc(N)c2c3c(sc2n1)CC(C(C)(C)C)CC3	H37Rv		MTT / visual reading	MIC		200 µg/mL
CCOC(=O)c1cc(Cl)cc2c(=O)c3c(O)c4[nH]c5c(C(=O)OCC)cc(Cl)cc5c(=O)c4c(O)c3[nH]c12	H37Rv		BACTEC	MIC bound		>12.5 µg/mL
CC1=C(C(=O)Nc2ccccc2Cl)C(c2ccc(Cl)cc2)C(C(=O)Nc2ccccc2Cl)=C(C)N1	H37Rv			MIC		>12.5 µg/mL
CCc1nc(NC(C(=O)O)C(C)C)c2cc(C)sc2n1	Erdman	qcrCAB A178T	resazurin	EC50		>20 µM
Cc1ccc2c(c1)c1c3n2CCN(CC(O)CNC(C)C)C3CCC1	H37Rv			MIC		16 µg/mL
CCOC(=O)c1cc(-c2ccc(Cl)cc2)n(CCC(=O)N/N=C/c2[nH]c(C)c(C(C)=O)c2C)c1C	H37Rv			inhibition	6.25 µg/mL	100%
COc1ccc(-c2cc(CN3CCSCC3)c(C)n2-c2ccc(F)cc2)cc1	H37Rv			MIC90		10.08 µM
COc1ccc(/C=C2/CC(c3ccc(C)cc3)=NNC2=O)cc1	H37Rv		resazurin	MIC		25 µg/mL
CC(C)(C)OC(=O)n1ccc(CSc2nc(N)c3c4c(sc3n2)CC(C(C)(C)C)CC4)n1	H37Rv		MTT / visual reading	MIC		>200 µg/mL
CC1=C(C(=O)Nc2ccc([N+](=O)[O-])cc2)C(c2ccccc2O)C(C(=O)Nc2ccc([N+](=O)[O-])cc2)=C(C)N1	H37Rv			MIC		>12.5 µg/mL
COc1ccc(-c2cc(CN3CCOCC3)c(C)n2-c2ccc(C)cc2)cc1	H37Rv			MIC90		65.86 µM
Cc1c2oc3c(C)ccc(C(=O)NCCc4ccco4)c3nc-2c(C(=O)NCCc2ccco2)c(N)c1=O	H37Rv		BACTEC	inhibition	12.5 µg/mL	-69%
Cc1ccc2c(c1)c1c3n2CCN(C(=S)Nc2ccccc2)C3CCC1	H37Rv			MIC		1000 µg/mL
O=c1ccn(-c2ccc([N+](=O)[O-])cc2[N+](=O)[O-])c(=O)[nH]1				inhibition	6.25 µg/mL	<90%
CC1COc2c(N3CCN(C)CC3)c(F)cc3c(=O)c(C(=O)O)cn1c23	25 strains			MIC90		0.78 µg/mL
CC1=C(C(=O)Nc2ccccc2Cl)C(c2ccccc2O)C(C(=O)Nc2ccccc2Cl)=C(C)N1	H37Rv			MIC		>12.5 µg/mL
COc1ccccc1NC(=O)C1=C(C)NC(C)=C(C(=O)Nc2ccccc2OC)C1c1ccc(Cl)cc1Cl	H37Rv			inhibition	2.5 µg/mL	91%
CO[C@H]1[C@@H](O)[C@H](n2ccc(=O)[nH]c2=O)O[C@@H]1[C@@H](O[C@H]1OC(C(=O)N[C@H]2CCC[C@@H](C)NC2=O)=C[C@H](O)[C@@H]1O)C(N)=O	NO.74			MIC		32 µg/mL
O=c1[nH]c(=O)n(-c2ccc([N+](=O)[O-])cc2)cc1F				inhibition	6.25 µg/mL	<90%
Cc1ccc2c(c1)c1c3n2CCNC3CCC1	ATCC 607			MIC		32 µg/mL
Cc1ccc(S(=O)c2ccccc2[N+](=O)[O-])cc1	H37Rv		BACTEC	inhibition	12.5 µg/mL	18%
COc1ccc(/C=C/C2=NN(C(=N)N)C(c3ccc(OC)cc3)C2)cc1	H37Rv		resazurin	MIC		0.89 µM
COc1c(C)c(C)c2[nH]c3ccccc3c2c1O	H37Ra		GFP	MIC		>50 µg/mL
N=C(N)/C=C/C(=O)O	H37Rv		BACTEC	inhibition	12.8 µg/mL	10%
CC1=C(C(=O)Nc2ccc(F)c(Cl)c2)C(c2cccc(Oc3ccccc3)c2)C(C(=O)Nc2ccc(F)c(Cl)c2)=C(C)N1	H37Rv			MIC		>6.25 µg/mL
CN1P(=N)(N)N=P(c2ccccc2)(c2ccccc2)N=P1(c1ccccc1)c1ccccc1.I	H37Rv		BACTEC	MIC		64 µg/mL
CSc1ccc(C2C(C(=O)Nc3ccc([N+](=O)[O-])cc3)=C(C)NC(C)=C2C(=O)Nc2ccc([N+](=O)[O-])cc2)cc1	H37Rv			EC50		<2.5 µg/mL
COc1cc(Cc2cnc(/N=C3\C(=O)N(CN(C)C)c4ccc(F)cc43)nc2N)cc(OC)c1OC	H37Rv			EC50		>6.25 µg/mL
CCOC(=O)c1cc(-c2ccc(Cl)cc2)n(CCC(=O)N/N=C/c2ccccc2O)c1C	H37Rv			MIC		>6.25 µg/mL
COc1cc(Cc2cnc(/N=C3\C(=O)N(CN4CCN(c5c(F)cc6c(=O)c(C(=O)O)cn(C7CC7)c6c5OC)CC4C)c4ccc(F)cc43)nc2N)cc(OC)c1OC	H37Rv			EC50		<6.25 µg/mL
CCCCC(=O)Oc1ccc2c(c1)[nH]c1c(C)nccc12	H37Rv			inhibition	6.25 µg/mL	16%
CCCCN(C)c1nc(CC)nc2sc(C)cc12	Erdman		resazurin	EC50		3.8 µM
COc1cc(/C=C/C2=NN(C(=N)N)C(c3cc(OC)c(OC)c(OC)c3)C2)cc(OC)c1OC	H37Rv		resazurin	MIC		5.31 µM
CCC1(CC)OC(=O)C(=O)N1N(C)C	H37Rv		BACTEC	MIC bound		>12.5 µg/mL
CC(C)(OC(=O)CSc1nc(N)c2c3c(sc2n1)CC(C(C)(C)C)CC3)c1ccccc1	H37Rv		MTT / visual reading	MIC		25 µg/mL
O=C(CCSCCC(=O)N/N=C(\CO)C(O)C(O)C(O)CO)N/N=C(\CO)C(O)C(O)C(O)CO	H37Rv		BACTEC	inhibition	12.5 µg/mL	15%
COc1cc(Cc2cnc(/N=C3\C(=O)N(CN4CCN(c5ccccc5)CC4)c4ccc(F)cc43)nc2N)cc(OC)c1OC	H37Rv			EC50		>6.25 µg/mL
CC1=C(C(=O)Nc2cccc([N+](=O)[O-])c2)C(c2ccccc2Cl)C(C(=O)Nc2cccc([N+](=O)[O-])c2)=C(C)N1	H37Rv			EC50		<2.5 µg/mL
O=c1[nH]c(=O)n(-c2ccc([N+](=O)[O-])cc2)cc1Br				inhibition	6.25 µg/mL	<90%
CCc1nc(NCCCc2ccccc2)c2cc(C)sc2n1	Erdman	cydA	resazurin	EC50		0.0062 µM
O=C1OC(C(F)(F)F)=NC1Cc1ccccc1	H37Rv		BACTEC	MIC bound		>12.5 µg/mL
CCCCNc1nc(CC)nc2sc(C)cc12	Erdman	cydA	resazurin	EC50		0.32 µM
Cn1cc(NC(=O)c2cc(NC(=O)CCCCCC(=O)Nc3cc(C(=O)Nc4cc(C(=O)NCCC(N)=[NH2+])n(C)c4)n(C)c3)cn2C)cc1C(=O)NCCC(N)=[NH2+]	H37Rv		BACTEC	inhibition	12.5 µg/mL	99%
Cc1ccc(C2=NNC(=O)/C(=C\c3ccc(Cl)cc3)C2)cc1	H37Rv		resazurin	MIC		25 µg/mL
COc1ccccc1-n1c(S[Si](C)(C)C)nc2c(Br)cccc2c1=O	H37Rv			MIC		≤40 µg/mL
S=C=NP1(N=C=S)=NP(N=C=S)(N=C=S)=NP(N=C=S)(N=C=S)=N1	H37Rv		BACTEC	MIC		64 µg/mL
Cc1ccc2c(c1)c1c3n2CCN(CC(O)CNC2CCC2)C3CCC1	H37Rv			MIC		64 µg/mL
CCCCCCCC(=O)Oc1ccc2c(c1)[nH]c1c(C)nccc12	H37Rv			EC50		>6.25 µg/mL
CC1=C(C(=O)Nc2cccc(C(F)(F)F)c2)C(c2cccc(O)c2)C(C(=O)Nc2cccc(C(F)(F)F)c2)=C(C)N1	H37Rv			MIC		>6.25 µg/mL
O=c1ccn(-c2ccc([N+](=O)[O-])cc2)c(=O)[nH]1				inhibition	6.25 µg/mL	<90%
O=C1NN=C(c2ccc(Cl)cc2)C/C1=C/c1ccc(Cl)cc1	H37Rv		resazurin	MIC		25 µg/mL
Cc1ccc2c(c1)[n+](=O)c(C(=O)NCc1ccc(C(F)(F)F)cc1)c(C)n2[O-]	H37Rv		resazurin	EC90		>100 µg/mL
C[Si]1(C)O[Si](C)(C)N(N)P(=S)(Oc2ccccc2)N1N	H37Rv		BACTEC	MIC bound		≤128 µg/mL
Cc1nccc2c1[nH]c1cc(OC(=O)c3ccccc3)ccc12	H37Rv			EC50		>6.25 µg/mL
N#Cc1cn(-c2ccc([N+](=O)[O-])cc2[N+](=O)[O-])c(=O)[nH]c1=O				inhibition	6.25 µg/mL	<90%
Clc1ccc2c(n1)Sc1c(Cl)nc(Cl)nc1N2	H37Rv		BACTEC	inhibition	12.5 µg/mL	-3%
CCc1ccc(-c2cc(CN3CCOCC3)c(C)n2-c2ccc(F)cc2)cc1	H37Rv DR4	V681I V581A N365S		MIC		0.66 µM
Cc1ncc(-c2c[nH]c3ccccc23)o1	H37Ra		GFP	MIC		25 µg/mL
Nc1cc2oc3ccccc3c2c2cccnc12	H37Rv		BACTEC	MIC		>12.5 µg/mL
CCOC(=O)c1[nH]c(C)c(/C=N\NC(=O)c2ccncc2)c1C	H37Rv			MIC		<0.1 µg/mL
Cc1ccc2c(c1)c1c3n2CCN(CC(C)O)C3CCC1	H37Rv			MIC		64 µg/mL
COc1ccc(/C(=N\NC(=O)C(=O)NN)C(c2ccc(OC)cc2)C2(O)C(=O)Nc3ccccc32)cc1	H37Rv		BACTEC	MIC bound		>12.5 µg/mL
COc1ccc2[nH]c3c(C)c(C)c(OC)c(O)c3c2c1	H37Ra		GFP	MIC		>50 µg/mL
Cc1cn(-c2ccc([N+](=O)[O-])cc2)c(=O)[nH]c1=O				inhibition	6.25 µg/mL	<90%
Cc1ccc(CNC(=O)c2c(C)n([O-])c3cc(Cl)c(Cl)cc3[n+]2=O)cc1	H37Rv		resazurin	EC90		>100 µg/mL
CCCC(NC(=O)OCc1ccccc1)C(=O)NC(CO)C(=O)O	H37Rv		BACTEC	MIC		≥12.8 µg/mL
COc1cc(Cc2cnc(/N=C3\C(=O)N(CN4CCN(Cc5ccccc5)CC4)c4ccc(F)cc43)nc2N)cc(OC)c1OC	H37Rv			EC50		>6.25 µg/mL

8 of the rows above, restated:

{"smiles": "CC1=C(C(=O)Nc2cccc([N+](=O)[O-])c2)C(c2ccccc2Cl)C(C(=O)Nc2cccc([N+](=O)[O-])c2)=C(C)N1", "strain or isolate": "H37Rv", "read-out": "EC50", "result": "<2.5 µg/mL"}
{"smiles": "Cc1ccc(C2=NNC(=O)/C(=C\\c3ccc(O)cc3)C2)cc1", "strain or isolate": "H37Rv", "method": "resazurin", "read-out": "MIC", "result": "25 µg/mL"}
{"smiles": "Cn1cc(NC(=O)c2cc(NC(=O)CCCCCC(=O)Nc3cc(C(=O)Nc4cc(C(=O)NCCC(N)=[NH2+])n(C)c4)n(C)c3)cn2C)cc1C(=O)NCCC(N)=[NH2+]", "strain or isolate": "H37Rv", "method": "BACTEC", "read-out": "inhibition", "dose": "12.5 µg/mL", "result": "99%"}
{"smiles": "CCSc1nc(N)c2c3c(sc2n1)CC(C(C)(C)C)CC3", "strain or isolate": "H37Rv", "method": "MTT / visual reading", "read-out": "MIC", "result": "200 µg/mL"}
{"smiles": "N#Cc1cn(-c2ccc([N+](=O)[O-])cc2[N+](=O)[O-])c(=O)[nH]c1=O", "read-out": "inhibition", "dose": "6.25 µg/mL", "result": "<90%"}
{"smiles": "CCOC(=O)c1cc(-c2ccc(Cl)cc2)n(CCC(=O)N/N=C/c2ccc(OC)cc2)c1C", "strain or isolate": "H37Rv", "read-out": "inhibition", "dose": "6.25 µg/mL", "result": "92%"}
{"smiles": "Clc1ccc2c(n1)Sc1c(Cl)nc(Cl)nc1N2", "strain or isolate": "H37Rv", "method": "BACTEC", "read-out": "inhibition", "dose": "12.5 µg/mL", "result": "-3%"}
{"smiles": "N=C(N)N1N=C(/C=C/c2ccccc2)CC1c1ccccc1", "strain or isolate": "H37Rv", "method": "resazurin", "read-out": "MIC", "result": "2.15 µM"}

ECn is the concentration giving n% inhibition of infection, replication or growth. An empty or dashed field is not shown. Neighbouring rows are from separate reports. MIC50, MIC90 and the like: level of inhibition, or share of isolates inhibited. MIC bound: limit read from a one-dose screen.